PubChem BioAssay AID504761 – Drosophila RNAi Screening Center | 2011
Assay: 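Genome-wide fly cell screen for genes dengue virus requires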 (primary screen). Cells: D.Mel-2 cells from Drosophila. Reagents: long dsRNA against Drosophila genes. Challenge: infection with dengue virus type 2; dose and infection time not stated. Measurement: 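Cells stained for dengue envelope protein and imaged; percent of infected cells per well on duplicate plates, ranked by infection, with stained nuclei counted for cell number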. Reading the numbers: infection score: higher = more virus-infected cells; cell count: higher = more cells in the well. Rule for the call: 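Low infection ranks in the two replicates (chance level up to 0.065) followed by a retest with a 1.5-fold or larger significant decrease, p below 0.05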. Calls: active = confirmed: knock-down lowers infection; inactive = not picked or not confirmed.
In all, the deposit lists about 22,000 reagents; this is an unselected part of those that have a named target and a result. Of all reagents, 116 (0.52%) got an active call. 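Calls depend on retest data that are not deposited; infection was ranked per plate without normalising between plates; the unit of the infection score is not given.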 The raw values are shown without normalisation. Reagents against one gene are numbered here. Names joined by + are all predicted targets of the reagent. Further read-outs or replicates are left out here. Not given: the amount of reagent, the time to read-out.

ND-B14.5B showed infection score, replicate 1 = 2.3; cell count, replicate 1 = 6259; inactive. Depletion of CG31075 resulted in: infection score, replicate 1 = 7.25; cell count, replicate 1 = 4553; inactive. CG42758 gave infection score, replicate 1 = 0.72; cell count, replicate 1 = 5866; inactive. Knock-down of CG34428 resulted in: infection score, replicate 1 = 1.55; cell count, replicate 1 = 6575; inactive. With knock-down of CG13784 the results were infection score, replicate 1 = 1.09; cell count, replicate 1 = 5400; inactive. For Ciz1 #1, the values are infection score, replicate 1 = 2.16; cell count, replicate 1 = 5461; inactive.

Against Ciz1 #2, the values are infection score, replicate 1 = 5.5; cell count, replicate 1 = 5835; inactive. Against CG11069, the entry reads infection score, replicate 1 = 3.78; cell count, replicate 1 = 4688; inactive. Against CG14634, the values are infection score, replicate 1 = 7.85; cell count, replicate 1 = 1808; inactive. For GAPcenA, the entry reads infection score, replicate 1 = 2.23; cell count, replicate 1 = 6144; inactive. For CG18748, the entry reads infection score, replicate 1 = 6.92; cell count, replicate 1 = 6880; inactive. With knock-down of MsrA the results were infection score, replicate 1 = 3.66; cell count, replicate 1 = 6549; inactive.

CG45263 #1 gave infection score, replicate 1 = 3.44; cell count, replicate 1 = 6793; inactive. With knock-down of CG45263 #2 the results were infection score, replicate 1 = 4.35; cell count, replicate 1 = 6781; inactive. Depletion of CG45263 #3 came out at: infection score, replicate 1 = 16.1; cell count, replicate 1 = 5381; inactive. For CG31687 + Cdc23, the entry reads infection score, replicate 1 = 5.85; cell count, replicate 1 = 5603; inactive. alpha-Man-Ib #1 showed infection score, replicate 1 = 1.46; cell count, replicate 1 = 5684; inactive. For alpha-Man-Ib #2, the values are infection score, replicate 1 = 9.31; cell count, replicate 1 = 6359; inactive.

Knock-down of CG31460 gave: infection score, replicate 1 = 4.58; cell count, replicate 1 = 6075; inactive. Knock-down of CG17233 resulted in: infection score, replicate 1 = 2.12; cell count, replicate 1 = 3438; inactive. CG31082 (retired record) #1 showed infection score, replicate 1 = 1.72; cell count, replicate 1 = 6119; inactive. Knock-down of CG31082 (retired record) #2 gave: infection score, replicate 1 = 14.8; cell count, replicate 1 = 2898; inactive. Knock-down of CG7550 came out at: infection score, replicate 1 = 3.46; cell count, replicate 1 = 5991; inactive. After knock-down of CG4520 #1, the screen gave infection score, replicate 1 = 3.63; cell count, replicate 1 = 6564; inactive.

With knock-down of CG4520 #2, the screen gave infection score, replicate 1 = 9.34; cell count, replicate 1 = 5073; inactive. Ggamma30A #1 showed infection score, replicate 1 = 0.42; cell count, replicate 1 = 6167; inactive. Depletion of Ggamma30A #2 came out at: infection score, replicate 1 = 3.22; cell count, replicate 1 = 6275; inactive.
